Results of unrelated studies side by side (data: NIAID ChemDB).

Shared fields: enzyme or target tests; species: HIV-1; protein: Reverse transcriptase; method: RT activity / fluorescence; measure: IC50

ICn: concentration for n% inhibition.

structure | strain | result
N#Cc1cnc2c(F)cccc2c1Nc1ccc(F)cc1 | - | ≥50 µM
Cc1cc(-c2ccc(C#N)cc2)cc(C)c1Oc1ccnc(S(=O)(=O)C(C)C(=O)Nc2ccc(C#N)cc2)n1 | - | 2.606 µM
FC(F)c1nnc2c3ccccc3c(N3CCc4ccccc4C3)nn12 | 98US_MSC5016 | 0.28 µM
N#Cc1cnc2c(Cl)cccc2c1Nc1cccc(Br)c1 | - | ≤10 µM
C=C(c1cc(OC)cc(OC)c1)c1c(C)c(=O)[nH]c(=O)n1COCc1ccccc1 | - | 49.41 µM
N#Cc1ccc(Nc2nc(N)nc(Oc3ccc4cccc(Cl)c4c3)n2)c(F)c1 | - | 0.709 µM
N#Cc1cnc2c(F)cccc2c1Nc1cccc(F)c1 | - | ≤12 µM
CN(C)c1ccc2c(c1)CN(c1nn3c(C4CC4)nnc3c3ccccc13)CC2 | 98US_MSC5016 | 0.48 µM
Cc1cc(/C=C/C#N)cc(C)c1Oc1ccnc(S(=O)(=O)CC(=O)Nc2ccc(Cl)cc2)n1 | - | 0.186 µM
N#Cc1cnc2c(Cl)cccc2c1Nc1ccc(Br)cc1 | - | ≤12 µM
CCCNc1nc(Nc2ccc(C#N)cc2F)nc(Oc2ccc(C)cc2)n1 | - | 4.35 µM
Cc1nnc2c3ccccc3c(N3CCc4ccc(C#N)cc4C3)nn12 | KER2008 | 2.48 µM
CC(C)Nc1nc(Nc2ccc(C#N)cc2F)nc(Oc2ccc3cccc(Br)c3c2)n1 | - | 9.49 µM
Nc1ccc2c(c1)CN(c1nn3c(C(F)F)nnc3c3ccccc13)CC2 | 98US_MSC5016 | 1.09 µM
N#Cc1cnc2c(F)cccc2c1Nc1ccccc1 | - | <8 µM
Fc1ccc2c(c1)CN(c1nn3c(C4CC4)nnc3c3ccccc13)CC2 | KER2008 | 0.78 µM
Cc1cc(-c2ccc(C#N)cc2)cc(C)c1Oc1ccnc(S(=O)(=O)CC(=O)Nc2ccc(Cl)cc2)n1 | - | 0.078 µM
CCNc1nc(Nc2ccc(C#N)cc2F)nc(Oc2ccc3cccc(Br)c3c2)n1 | - | 2.05 µM
N#Cc1cnc2c(F)cccc2c1Nc1ccc(Br)cc1 | - | ≤10 µM
COc1ccc2c(c1)CCN(c1nn3c(C4CC4)nnc3c3ccccc13)C2 | 98US_MSC5016 | 1.07 µM
C=CNc1nc(Nc2ccc(C#N)cc2F)nc(Oc2ccc3cccc(Cl)c3c2)n1 | - | 1.98 µM
Oc1ccc2c(c1)CN(c1nn3c(C4CC4)nnc3c3ccccc13)CC2 | 98US_MSC5016 | 0.57 µM
CCCNc1nc(Nc2ccc(C#N)cc2F)nc(Oc2ccc3cccc(Cl)c3c2)n1 | - | 4.911 µM
COc1ccc2c(c1)CCN(c1nn3c(C)nnc3c3ccccc13)C2 | 98US_MSC5016 | 4.26 µM
N#Cc1cnc2c(F)cccc2c1Nc1ccc(Cl)cc1 | - | ≤12 µM

The first 4 rows once more:

structure | strain | result
N#Cc1cnc2c(F)cccc2c1Nc1ccc(F)cc1 | - | ≥50 µM
Cc1cc(-c2ccc(C#N)cc2)cc(C)c1Oc1ccnc(S(=O)(=O)C(C)C(=O)Nc2ccc(C#N)cc2)n1 | - | 2.606 µM
FC(F)c1nnc2c3ccccc3c(N3CCc4ccccc4C3)nn12 | 98US_MSC5016 | 0.28 µM
N#Cc1cnc2c(Cl)cccc2c1Nc1cccc(Br)c1 | - | ≤10 µM

Neighbouring rows are from separate reports. An empty or dashed field is not shown.